Test [1] concerns the target nsP2 protease (Chikungunya virus, UniProt Q8JUX6). The test can be described thus: Cell-based nsP2 proteolytic assay, split Nluc reporter in HEK293 cells.
Test [2] deals with CHIKV nsP2pro (Chikungunya virus, UniProt Q8JUX6). Put plainly: FRET-based nsP2pro proteolytic assay with peptide 2 (nsp3/4 site), 1,536-well qHTS. Conditions: nsP2pro biochemical assay, 13 cell-active hits. A general note: Quantitative high-throughput screening tests each substance at several concentrations.

Broadly, the AC50 is the concentration at which the activity in the assay is half-maximal. By IC50 is commonly meant the concentration needed to halve the response being measured.

For the molecule `Oc1ccc(CNc2ccccc2F)c2cccnc12`, in test [1] (increase of Nluc reporter signal), the “Cell-based % Efficacy” value is given as 181.6%. Besides, the AC50 in test [1] (read-out: Cell-based AC50, increase of Nluc reporter signal) turned out to be 900 nM. Further, the “Enzymatic % Efficacy” value in test [2] is recorded as -118.4%. In addition, in test [2] (read-out: Enzymatic IC50), the IC50 came to 1900 nM.

For the origin of these results see paper PMC12480751, “A quantitative high-throughput screening pipeline to identify small molecule inhibitors of Chikungunya nsP2 protease” (Scientific Reports, 2025).
